For data set [1], the system named is HSV-2BH. Description: Antiviral activity in Vero E6 cells infected with HSV-2 (cytopathic effect). The data set is classed as cell-based. On the technique in general: Protection from cytopathic effect is a common read-out in antiviral testing.
The test system of data set [2] is HSV-1L2. Put plainly: Antiviral activity in Vero E6 cells infected with HSV-1 (cytopathic effect). The data set is classed as cell-based.
The test system of data set [3] is influenza A virus/California/07/2009 (H1N1) pdm. The data set is classed as cell-based.
In data set [4] the test system is EBVB95-8. Put plainly: Inhibition of EBV replication in B95-8 cells (EBV genomic DNA, real-time PCR). Format: cell-based, Epstein–Barr virus. A general note: In qPCR the cycle at which signal appears reflects the starting amount.
Data set [5] relates to SARS-CoV-2 (HCoV-19/Russia/Moscow-PMVL-12/2020, EPI_ SL_572398). The data set is classed as cell-based. Conditions: CC50/IC50, SARS-CoV-2 in Vero E6 cells.
Data set [6] has as its system HIV-1 (HIVIIIB). The data set is classed as cell-based. Particulars: CC50/IC50, HIV-1 in MT-4 cells.

Where two headings read alike, the source gives them in different places.

Turning to `O=C(OC[C@H]1O[C@@H](OC(=O)c2cc(O)c(O)c(O)c2)[C@H](OC(=O)c2cc(O)c(O)c(O)c2)[C@@H](OC(=O)c2cc(O)c(O)c(OC(=O)c3cc(O)c(O)c(O)c3)c2)[C@@H]1OC(=O)c1cc(O)c(O)c(O)c1)c1cc(O)c(O)c(O)c1` [R6, 3-bis-O-galloyl-1,2,4,6-tetra-O-galloyl-β-D-glucose], the SI in data set [1] (HSV-2BH, CC50/IC50) is given as 2; in data set [2] (HSV-1L2, CC50/IC50), 3; in data set [3] (CC50/IC50, IAV in MDCK cells), <2.

In the case of `O=C(O)P(=O)(O)O` [Foscarnet, reference compound], the SI in data set [1] (HSV-2BH, CC50/IC50) is >16; in data set [2] (HSV-1L2, CC50/IC50) it was >8.

Turning to `Nc1nc(O)c2ncn(COC(CO)CO)c2n1` [Ganciclovir, reference compound], the “SI, Inhibition on EBV Replication” value in data set [4] (CC50/IC50) is on record as >10.

Regarding `O=C1O[C@H]2C3OC(=O)c4cc(O)c(O)c(O)c4-c4c(cc(O)c(O)c4O)C(=O)OC[C@H]2O[C@@H](OC(=O)c2cc(O)c(O)c(O)c2)[C@@H]3OC(=O)c2cc(O)c(O)c3c2[C@@H]2C1=CC(=O)[C@](O)(O3)C2(O)O` [Geraniin, (1R,7R,26R,28S,29R,38R)-1,13,14,15,18,19,20,34,35,39,39-Undecahydroxy-2,5,10,23,31-pentaoxo-6,9,24,27,30,40-hexaoxaoctacyclo [34.3.1.0~4,38~.0~7,26~.0~8,29~.0~11,16~.0~17, 22~.0~32,37~]tetraconta-3,11,1 3,15,17,19,21,32,34,36-decaen-28-yl 3,4,5-trihydroxybenzoate], the SI in data set [1] (HSV-2BH, CC50/IC50) came to 169; in data set [2] (HSV-1L2, CC50/IC50), 55; in data set [3] (CC50/IC50, IAV in MDCK cells), 26; in data set [5] it was 12.6; in data set [6], 25.6.

As for `CC(C)(C)[C@H](NC(=O)C(F)(F)F)C(=O)N1C[C@H]2[C@@H]([C@H]1C(=O)N[C@H](C#N)C[C@@H]1CCNC1=O)C2(C)C` [Nirmatrelvir, reference compound], the SI in data set [5] is >200.

Regarding `O=C(OC[C@H]1O[C@@H](OC(=O)c2cc(O)c(O)c(O)c2)[C@H](OC(=O)c2cc(O)c(O)c(OC(=O)c3cc(O)c(O)c(O)c3)c2)[C@@H](OC(=O)c2cc(O)c(O)c(OC(=O)c3cc(O)c(O)c(O)c3)c2)[C@@H]1OC(=O)c1cc(O)c(O)c(OC(=O)c2cc(O)c(O)c(O)c2)c1)c1cc(O)c(O)c(O)c1` [R8, 2,3,4-bis-O-galloyl-1,6-di-O-galloyl-β-D-glucose], the SI in data set [1] (HSV-2BH, CC50/IC50) amounted to 3; in data set [2] (HSV-1L2, CC50/IC50), 11; in data set [3] (CC50/IC50, IAV in MDCK cells), 291.3.

For “2,4-bis-O-galloyl-1,3,6-tri-O-galloyl-β-D-glucose [R7]”, the SI in data set [1] (HSV-2BH, CC50/IC50) is recorded as 20; in data set [2] (HSV-1L2, CC50/IC50), 28.

Regarding `Cc1cn([C@H]2C[C@H](N=[N+]=[N-])[C@@H](CO)O2)c(=O)[nH]c1=O` [Azidothymidine, reference compound], in data set [6], the SI is 1800.

Take `O=C(OC[C@H]1O[C@@H](OC(=O)c2cc(O)c(O)c(O)c2)[C@H](OC(=O)c2cc(O)c(O)c(O)c2)[C@@H](OC(=O)c2cc(O)c(O)c(O)c2)[C@@H]1OC(=O)c1cc(O)c(O)c(O)c1)c1cc(O)c(O)c(O)c1` [R5, 1,2,3,4,6-penta-O-galloyl-β-D-glucose]: the values for the SI in data set [1], in data set [2] and in data set [3] (ratio CC50 / IC50) were 15, 15 and 9.8, respectively. Moreover, the “SI, Inhibition on EBV Replication” value in data set [4] was <8.5.

Take `CCOC(=O)C1=C[C@@H](OC(CC)CC)[C@H](NC(C)=O)[C@@H](N)C1` [Oseltamivir, reference compound]: in data set [3] (CC50/IC50, IAV in MDCK cells), the SI is >500.

Source of the values: publication PMC12607321, “Sumac Polyphenols as Pan-Herpesvirus Inhibitors” (International Journal of Molecular Sciences, 2025).
